Results of unrelated studies side by side (data: NIAID ChemDB).

Shared fields: growth or infection tests; organism: Mycobacterium avium

Percent inhibition refers to the dose given; in toxicity tests it is the harm to the cells.

structure | strain | read by | conditions | measure | tested at | result
CCCCCCCCCCNC(=O)Nc1ccc(S(=O)(=O)Nc2cc(C)on2)cc1 | 330/88 | broth dilution / absorbance | 21 d | MIC100 | - | 125 µM
C=C[C@]1(C)C=C2[C@H](O)C[C@@H]3C(C)(CCC[C@@]3(C)CO)[C@H]2CC1 | ITM2515 | - | - | inhibition | 100 µg/mL | inactive
CCn1cc(C(=O)O)c(=O)c2cc(F)c(-n3cccc3)cc21 | - | - | pH 6.8 | inhibition | 3 µg/mL | 41%
CO[C@H]1/C=C/O[C@@]2(C)Oc3c(C)c(O)c4c(O)c(c5c(c4c3C2=O)NC2(CCN(CC(C)C)CC2)N=5)=NC(=O)/C(C)=C\C=C\[C@H](C)[C@H](O)[C@@H](C)[C@@H](O)[C@@H](C)[C@H](OC(C)=O)[C@@H]1C | ATCC 25291 | - | - | Mean MIC | - | >0.53 µg/mL
CCCNC(=O)Nc1ccc(S(=O)(=O)Nc2cc(C)on2)cc1 | 330/88 | broth dilution / absorbance | 21 d | MIC100 | - | 1000 µM
Cc1cc(-c2cc3c(cc2F)c(=O)c(C(=O)O)cn3C2CC2)cc(C)n1 | 3350 | - | - | MBC | - | 2 µg/mL
Nc1ccc(C(=O)O)c(O)c1 | ATCC 25291 | - | - | Mean MIC | - | 72 µg/mL
CCc1cc(C(N)=S)ccn1 | 453 | - | - | MIC | - | >8 µg/mL
CO[C@H]1/C=C/O[C@@]2(C)Oc3c(C)c(O)c4c(=O)c(c5oc6cc(N7CCN(CC(C)C)CC7)cc(=O)c6nc5c4c3=C2O)NC(=O)/C(C)=C\C=C\[C@H](C)[C@H](O)[C@@H](C)[C@@H](O)[C@@H](C)[C@H](OC(C)=O)[C@@H]1C | 3010 | - | - | MBC | - | 0.25 µg/mL
NC[C@@H]1O[C@H](O[C@H]2[C@@H](O)[C@H](O[C@@H]3[C@@H](O)[C@H](N)C[C@H](N)[C@H]3O[C@H]3O[C@H](CO)[C@@H](O)[C@H](O)[C@H]3N)O[C@@H]2CO)[C@H](N)[C@@H](O)[C@@H]1O | ATCC 25291 | - | - | Mean MIC | - | 13 µg/mL
CO[C@H]1/C=C/O[C@@]2(C)Oc3c(C)c(O)c4c(O)c(c5c(c4c3C2=O)NC2(CCN(CC(C)C)CC2)N=5)=NC(=O)/C(C)=C\C=C\[C@H](C)[C@H](O)[C@@H](C)[C@@H](O)[C@@H](C)[C@H](OC(C)=O)[C@@H]1C | 3337-4 | - | - | MBC | - | 32 µg/mL
CN[C@@H]1[C@H](O[C@H]2[C@H](O[C@H]3[C@H](O)[C@@H](O)[C@H](N=C(N)N)[C@@H](O)[C@@H]3N=C(N)N)O[C@@H](C)[C@]2(O)C=O)O[C@@H](CO)[C@H](O)[C@H]1O | 1435-C clarithromycin-resistant | - | - | MIC | - | 8 µg/mL
Cc1cc(NS(=O)(=O)c2ccc(NC(=O)N3CCC3)cc2)no1 | 330/88 | broth dilution / absorbance | 14 d | MIC100 | - | 125 µM
CC[C@H]1OC(=O)[C@H](C)[C@@H](O[C@H]2C[C@@](C)(OC)[C@@H](O)[C@H](C)O2)[C@H](C)[C@@H](O[C@@H]2O[C@H](C)C[C@H](N(C)C)[C@H]2O)[C@](C)(OC)C[C@@H](C)C(=O)[C@H](C)[C@@H](O)[C@]1(C)O | RG0 | - | - | MIC | - | 2 µg/mL
CO[C@H]1/C=C/O[C@@]2(C)Oc3c(C)c(O)c4c(O)c(c(/C=N/N5CCN(C)CC5)c(O)c4c3C2=O)NC(=O)/C(C)=C\C=C\[C@H](C)[C@H](O)[C@@H](C)[C@@H](O)[C@@H](C)[C@H](OC(C)=O)[C@@H]1C | Isolate 90-1625 | - | - | MIC | - | 15 µg/mL
CO[C@H]1/C=C/O[C@@]2(C)Oc3c(C)c(O)c4c(O)c(c(/C=N/N5CCN(C)CC5)c(O)c4c3C2=O)NC(=O)/C(C)=C\C=C\[C@H](C)[C@H](O)[C@@H](C)[C@@H](O)[C@@H](C)[C@H](OC(C)=O)[C@@H]1C | ATCC 25291 | - | - | Median MIC | - | 8 µg/mL
NNC(=O)c1ccncc1 | 330/88 | broth dilution / absorbance | 14 d | MIC100 | - | >250 µM
CC1CN(c2c(F)c(N)c3c(=O)c(C(=O)O)cn(C4CC4)c3c2F)CCN1C | SMT | - | - | MIC | - | 0.5 µg/mL
C[C@@H]1CN(c2c(F)c(N)c3c(=O)c(C(=O)O)cn(C4CC4)c3c2F)C[C@H](C)N1 | ATCC 25291 | - | - | Median MIC | - | 3 µg/mL
N[C@@H]1CONC1=O | 3011-C clarithromycin-resistant | - | - | MIC | - | 8 µg/mL
CCC[C@@H]1C[C@@H](C(=O)N[C@@H]([C@H]2O[C@H](SC)[C@H](O)[C@@H](O)[C@H]2O)[C@@H](C)O)N(C)C1 | ATCC 25291 | - | - | Median MIC | - | 128 µg/mL
Cc1cc(NS(=O)(=O)c2ccc(NC(=O)N(C(C)C)C(C)C)cc2)no1 | 330/88 | broth dilution / absorbance | 21 d | MIC100 | - | >1000 µM
CC(=O)O[C@H]1C[C@@]2(C)[C@@H](C[C@@H](O)[C@H]3[C@@]4(C)CC[C@@H](O)[C@@H](C)[C@@H]4CC[C@@]32C)/C1=C(\CCC=C(C)C)C(=O)O | ATCC 25291 | - | - | Median MIC | - | 24 µg/mL
CC[C@H]1OC(=O)[C@H](C)[C@@H](O[C@H]2C[C@@](C)(OC)[C@@H](O)[C@H](C)O2)[C@H](C)[C@@H](O[C@@H]2O[C@H](C)C[C@H](N(C)C)[C@H]2O)[C@](C)(O)C[C@@H](C)CN(C)[C@H](C)[C@@H](O)[C@]1(C)O | 1435 | - | - | MIC | - | 16 µg/mL
CC(C)N=c1cc2n(-c3ccc(Cl)cc3)c3ccccc3nc-2cc1Nc1ccc(Cl)cc1 | ATCC 25291 | - | - | Mean MIC | - | 0.61 µg/mL
CC[C@@H](CO)NCCN[C@@H](CC)CO | RG2 | - | - | MIC | - | 8 µg/mL
NNC(=O)c1ccncc1 | ATCC 25291 | - | - | Mean MIC | - | >32 µg/mL
CCn1cc(C(=O)O)c(=O)c2cc(F)c(N3CCNCC3)cc21 | 13 strains | - | - | MIC50 | - | >32 µg/mL

3 of the rows above, restated:

structure | strain | read by | conditions | measure | tested at | result
Cc1cc(-c2cc3c(cc2F)c(=O)c(C(=O)O)cn3C2CC2)cc(C)n1 | 3350 | - | - | MBC | - | 2 µg/mL
CC[C@H]1OC(=O)[C@H](C)[C@@H](O[C@H]2C[C@@](C)(OC)[C@@H](O)[C@H](C)O2)[C@H](C)[C@@H](O[C@@H]2O[C@H](C)C[C@H](N(C)C)[C@H]2O)[C@](C)(O)C[C@@H](C)CN(C)[C@H](C)[C@@H](O)[C@]1(C)O | 1435 | - | - | MIC | - | 16 µg/mL
Nc1ccc(C(=O)O)c(O)c1 | ATCC 25291 | - | - | Mean MIC | - | 72 µg/mL

"inactive" is the filed call at that dose; no cut-off is given. Blank or dashed fields: not listed here. A number after MIC or MFC names an inhibition level or a share of isolates. Conditions beyond the fields shown may differ between rows.